Tested on: S. gordonii
Settings: downregulated, low vs high arginine; average across the locus

SMILES: N=C(N)NCCC[C@H](N)C(=O)O [L-arginine]
- Fold Change, SGO_1575-1582 Bfb locus, biofilm formation and cellobiose PTS: −30.2

Source: patent US10570401B2, “Compositions and method for destabilizing, altering, and dispersing biofilms” (priority 2013, dated 2020)
